Data as given in PubChem BioAssay AID1224833 (University of Georgia, 2016)
The whole screen tested about 12,000 reagents; shown is a random part of them. About 5,600 of all reagents (46%) were called active. 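Active calls cover z-scores past 1 in both directions, so they include lowered as well as raised rotavirus replication.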

Screen: 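Host factors restraining rotavirus as candidate antiviral genes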 (primary screen)
System: monkey MA104 kidney cells
Reagents: siRNA pool against human genes, 50 nM
Time to read-out: 48 h knock-down before infection; read 24 h after infection
Challenge: infection with rotavirus strain RV3 two days after transfection; infectious dose for this stage not given
Measured: 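Rotavirus antigen per well by fluorescent immunoassay, normalised to non-targeting control wells on each plate and given as a standard z-score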
Direction: z-score vs non-targeting control: higher = more rotavirus replication than with non-targeting control
Call rule: In these data the active calls have z-score vs non-targeting control at about -1 or lower, or at about 1 or higher
Meaning of the calls: active = z-score beyond 1 either way; inactive = z-score within 1 of zero

gene	z-score vs non-targeting control	Outcome
FDCSP (GeneID 260436)	-1.29	active
PLS3 (GeneID 5358)	0.837	inactive
P4HTM (GeneID 54681)	-2.07	active
SCARA3 (GeneID 51435)	-2.32	active
MIDEAS (GeneID 91748)	1.08	active
ZDHHC16 (GeneID 84287)	2.15	active
PDCD5 (GeneID 9141)	-0.121	inactive
DEFB115 (GeneID 245929)	-0.471	inactive
AP1B1 (GeneID 162)	-0.652	inactive
KATNIP (GeneID 23247)	-1.75	active
CERS4 (GeneID 79603)	-0.307	inactive
CAVIN3 (GeneID 112464)	0.408	inactive
QTMAN (GeneID 79712)	-1.26	active
RWDD2A (GeneID 112611)	0.634	inactive
TNRC6A (GeneID 27327)	-1.21	active
RBMS2 (GeneID 5939)	-0.314	inactive
HBA1 (GeneID 3039)	-1.8	active
WDR45 (GeneID 11152)	-2.11	active
NRCAM (GeneID 4897)	0.505	inactive
RIPOR1 (GeneID 79567)	0.842	inactive
GTF3C6 (GeneID 112495)	-0.2	inactive
SLC22A13 (GeneID 9390)	-1.06	active
RAE1 (GeneID 8480)	-0.773	inactive
YWHAG (GeneID 7532)	0.571	inactive
COX20 (GeneID 116228)	3.97	active
DIO2 (GeneID 1734)	1.33	active
DEFB114 (GeneID 245928)	-0.283	inactive
CYTH2 (GeneID 9266)	-0.704	inactive
LINC02897 (GeneID 388759)	-0.506	inactive
PIANP (GeneID 196500)	-0.903	inactive
AMER1 (GeneID 139285)	-0.633	inactive
RPL10L (GeneID 140801)	-0.406	inactive
SEMA4A (GeneID 64218)	-0.348	inactive
RBMY1E (GeneID 378950)	-0.653	inactive
RPS4Y1 (GeneID 6192)	-0.172	inactive
NKX2-2 (GeneID 4821)	-0.823	inactive
NUSAP1 (GeneID 51203)	-2.39	active
HNRNPCL1 (GeneID 343069)	-0.148	inactive
OR1K1 (GeneID 392392)	0.747	inactive
GPAA1 (GeneID 8733)	-0.924	inactive
TRADD (GeneID 8717)	-0.606	inactive
LRRC14 (GeneID 9684)	0.291	inactive
REC8 (GeneID 9985)	0.0443	inactive
BLOC1S3 (GeneID 388552)	-0.625	inactive
GANAB (GeneID 23193)	-0.743	inactive
SPINT3 (GeneID 10816)	-0.1	inactive
OVOL1 (GeneID 5017)	0.759	inactive
NCKIPSD (GeneID 51517)	0.0263	inactive
ZNF420 (GeneID 147923)	1.24	active
RASGRP3 (GeneID 25780)	-3.54	active
POPDC3 (GeneID 64208)	-0.627	inactive
NLRP2 (GeneID 55655)	-1.1	active
MAGEC2 (GeneID 51438)	-1.33	active
ADAMTS13 (GeneID 11093)	0.723	inactive
LY6D (GeneID 8581)	-0.933	inactive
POU6F2 (GeneID 11281)	-0.642	inactive
E2F1 (GeneID 1869)	-2.01	active
SULT2B1 (GeneID 6820)	-0.331	inactive
MS4A13 (GeneID 503497)	2.92	active
EEF1G (GeneID 1937)	-0.504	inactive
ATP6V1F (GeneID 9296)	-1.2	active
PSRC1 (GeneID 84722)	0.291	inactive
KLHL8 (GeneID 57563)	-0.418	inactive
ZNF605 (GeneID 100289635)	-0.146	inactive
HNRNPH1 (GeneID 3187)	1.31	active
XKR9 (GeneID 389668)	-0.975	inactive
MRPL33 (GeneID 9553)	-1.23	active
ARL9 (GeneID 132946)	-2.76	active
SH3PXD2A (GeneID 9644)	-2.77	active
FAIM2 (GeneID 23017)	-0.563	inactive
LIMS2 (GeneID 55679)	-0.441	inactive
SGCA (GeneID 6442)	0.59	inactive
TAF1C (GeneID 9013)	-0.724	inactive
ZDHHC5 (GeneID 25921)	0.28	inactive
PAX3 (GeneID 5077)	0.926	inactive
SOX30 (GeneID 11063)	1.25	active
ZSCAN16 (GeneID 80345)	1.61	active
PLXNA3 (GeneID 55558)	1.34	active
BTC (GeneID 685)	0.811	inactive
SCNM1 (GeneID 79005)	-0.889	inactive
MYL3 (GeneID 4634)	-1.69	active
HOXC8 (GeneID 3224)	0.528	inactive
CPXCR1 (GeneID 53336)	-0.606	inactive
RAB41 (GeneID 347517)	-2.51	active
F5 (GeneID 2153)	0.891	inactive
INS-IGF2 (GeneID 723961)	0.132	inactive
DDRGK1 (GeneID 65992)	0.261	inactive
CCDC47 (GeneID 57003)	0.359	inactive
OTUD4 (GeneID 54726)	-2.14	active
PLXDC2 (GeneID 84898)	-0.333	inactive
IGIP (GeneID 492311)	-0.971	inactive
MRPL28 (GeneID 10573)	-1.09	active
SOX3 (GeneID 6658)	-0.669	inactive
ZNF208 (GeneID 7757)	-1.28	active
OR2C3 (GeneID 81472)	-0.531	inactive
TATDN1 (GeneID 83940)	-0.441	inactive
KAAG1 (GeneID 353219)	-0.178	inactive
KIR3DL1 (GeneID 3811)	-0.733	inactive
INKA1 (GeneID 389119)	-1.26	active
CHST12 (GeneID 55501)	-2.21	active
MATN3 (GeneID 4148)	-0.382	inactive
CHCHD1 (GeneID 118487)	-0.705	inactive
SCRT2 (GeneID 85508)	0.528	inactive
GPR45 (GeneID 11250)	1.43	active
CABP7 (GeneID 164633)	-2.07	active
MMP11 (GeneID 4320)	-0.519	inactive
OPN4 (GeneID 94233)	-1.01	active
RBBP4 (GeneID 5928)	1.21	active
UCN3 (GeneID 114131)	2.09	active
MPZ (GeneID 4359)	-1.77	active

Copied from the listing for reference:
gene	z-score vs non-targeting control	Outcome
P4HTM (GeneID 54681)	-2.07	active
SCARA3 (GeneID 51435)	-2.32	active
MIDEAS (GeneID 91748)	1.08	active
ZDHHC16 (GeneID 84287)	2.15	active
PDCD5 (GeneID 9141)	-0.121	inactive
DEFB115 (GeneID 245929)	-0.471	inactive
AP1B1 (GeneID 162)	-0.652	inactive
KATNIP (GeneID 23247)	-1.75	active
CERS4 (GeneID 79603)	-0.307	inactive
CAVIN3 (GeneID 112464)	0.408	inactive
QTMAN (GeneID 79712)	-1.26	active
RWDD2A (GeneID 112611)	0.634	inactive
